Laboratory results reported in PMC3612826, “Structural-Functional Analysis of 2,1,3-Benzoxadiazoles and Their N-oxides As HIV-1 Integrase Inhibitors” (Acta Naturae, 2013).
Where two headings read alike, the source gives them in different places. This is a selection: effects in other tests are not listed, and their absence says nothing.

Key:
recombinant HIV-1 IN = recombinant HIV-1 IN (Human immunodeficiency virus type 1 group M subtype B, UniProt P12497); assay: Inhibition of the 3'-end processing reaction; format: biochemical; conditions: read-out: Inhibitory activity, IC50, 3'-processing; IN 100 nM, U5B/U5A duplex 3 nM, […] MgCl2, 37°C, 2 h
wild-type HIV-1 IN = wild-type HIV-1 IN (Human immunodeficiency virus type 1 group M subtype B, UniProt P12497); assay: Inhibition of the strand transfer reaction, wild-type IN; format: biochemical
HIV-1 IN N155H mutant = HIV-1 IN N155H mutant (Human immunodeficiency virus type 1 group M subtype B, UniProt P12497, N1302H); assay: Inhibition of the strand transfer reaction, Raltegravir-resistant mutant IN
[1] = molecular target: HIV-1 IN Q148K/G140S mutant (Human immunodeficiency virus type 1 group M subtype B, UniProt P12497, G1287S/Q1295K); assay: as above
[2] = read-out: Inhibitory activity, IC50, strand transfer, IN 100 nM, U5B-2/U5A duplex 10 nM, […] MgCl2

O=[N+]([O-])c1cc([N+](=O)[O-])c2no[n+]([O-])c2c1
IC50 (recombinant HIV-1 IN): 400000 nM
IC50 (wild-type HIV-1 IN; [2]): 500000 nM

Cc1c([N+](=O)[O-])cc([N+](=O)[O-])c2no[n+]([O-])c12
IC50 (recombinant HIV-1 IN): 2000 nM
Strand transfer inhibited more efficiently than 3'-processing, times (wild-type HIV-1 IN; ratio of Table 1 IC50 values): 6–7 times
IC50 (wild-type HIV-1 IN; read-out: Inhibitory activity during the strand transfer reaction, wild-type, IC50, wild-type IN): 300 nM
IC50 (wild-type HIV-1 IN; [2]): 300 nM
Inhibitory activity during the strand transfer reaction, wild-type, IC95 (wild-type HIV-1 IN; wild-type IN, 95 % suppression): 6800 ± 1100 nM
Inhibitory activity during the strand transfer reaction, N155H mutant, IC95 (HIV-1 IN N155H mutant; 95 % suppression): 7600 ± 1300 nM
IC50 (HIV-1 IN N155H mutant; read-out: Inhibitory activity during the strand transfer reaction, N155H mutant, IC50): 600 nM
Inhibitory activity during the strand transfer reaction, Q148K/G140S mutant, IC95 ([1]; 95 % suppression): 1000 ± 400 nM
IC50 ([1]; read-out: Inhibitory activity during the strand transfer reaction, Q148K/G140S mutant, IC50): 500 nM
